Measured values from several laboratories, pooled; numbers as filed in NIAID ChemDB.

Shared fields: tests in culture; organism: HIV-1

ECn is the concentration giving n% inhibition of infection, replication or growth.

structure,mutations,strain,read-out,cell line,read by,value
C=CCOCn1c(Cc2ccccc2)c(CF)c(=O)[nH]c1=O,-,-,EC50,MT-4,MTT,6 µM
Clc1ncnc2c1ncn2[C@H]1C=CC2(CC1)O[C@H](c1ccccc1)[C@@H](c1ccccc1)O2,-,NL4-3,EC50,MT-4,MTT,>6.4 µg/mL
Cc1cc(C#CCCO)cc(C)c1Oc1ccnc(Nc2ccc(C#N)cc2)n1,L100I,IIIB,EC50,MT-4,MTT,0.258 µM
O=C1c2ccccc2C(=O)N1CCCCN1C(=O)[C@H](Cc2ccc(O)cc2)n2cccc2-c2ccccc21,-,IIIB,EC90,MT-2,cytopathic effect / XTT,>23 µg/mL
[2H]C([2H])(CNCC[C@@]12CC[C@]3(C)[C@H](CC[C@@H]4[C@@]5(C)CC[C@H](OC(=O)[C@H]6C[C@@H](C(=O)O)C6(C)C)C(C)(C)[C@@H]5CC[C@]43C)C1=C(C(C)C)C(=O)C2)NC(=O)c1ccc(Cl)cc1,-,92HT599,EC50,MT-2,p24 / ELISA,<1 µM
CC(=O)N(O)CCCCCNC(=O)CCC(=O)N(O)CCCCCNC(=O)CCC(=O)N(O)CCCCCN,-,IIIB,EC50,H9,p24,<20 µM
CN(C)c1ccc(Nc2c3ccc(NC(=O)CCN4CCCC4)cc3nc3cc(NC(=O)CCN4CCCC4)ccc23)cc1,-,IIIB,EC50,MT-4,p24 / single cycle,5.6 µM
CCc1c(Cc2cc(C)cc(C)c2)n(COCCO)c(=O)[nH]c1=O,K103N + Y181C,IIIB,EC50,MT-4,MTT,30 µM
COc1cc2c(c(O)c1OC)-c1c(cc(OC)c(OC)c1O)C[C@H](C)[C@H](C)C2,-,IIIB,EC50,C8166,syncytia,5.64 µM
CC(C)C1=C2[C@H]3CC[C@@H]4[C@@]5(C)CC[C@H](OC(=O)[C@H]6C[C@@H](C(=O)O)C6(C)C)C(C)(C)[C@@H]5CC[C@@]4(C)[C@]3(C)CC[C@@]2(CC(=O)NC(F)(CCN)CNC(=O)c2ccc(Cl)cc2)CC1=O,-,92HT599,EC50,MT-2,p24 / ELISA,<1 µM
C#CCOCn1c(Cc2ccccc2)c(CF)c(=O)[nH]c1=O,Y181C,Clinical isolates,EC50,MT-4,MTT,>100 µM
CC(C)C1=C2[C@H]3CC[C@@H]4[C@@]5(C)CC[C@H](OC(=O)[C@H]6C[C@@H](C(=O)O)C6(C)C)C(C)(C)[C@@H]5CC[C@@]4(C)[C@]3(C)CC[C@@]2(CCNCC(C)(C)NC(=O)c2cccnc2)CC1=O,-,92HT599,EC50,MT-2,p24 / ELISA,<1 µM
C[C@H]1O[C@@H](CO)O[C@@H]1n1cnc2c(N)nc(N)nc21,-,-,EC95,MT-4,p24,>10 µM
Nc1ccn([C@H]2CC[C@@H](COCP(=O)([O-])[O-])O2)c(=O)n1,-,IIIB,EC50,MT-4,cytopathic effect,500 µM
Fc1cccc(Cl)c1C1SCc2nc3cc4ccccc4cc3n21,-,RF,EC50,CEM + CEM-SS,-,>200 µM
O=C1C=C[C@@H](n2ccc(=O)n(C(=O)c3ccccc3)c2=O)CC1,-,NL4-3,EC50,MT-4,MTT,>0.5 µg/mL
C[C@@H]1O[C@H](CO)O[C@H]1n1cnc2c(N)ncnc21,-,-,EC95,MT-4,p24,>10 µM
O=C1C=CN([C@H]2C=C[C@H](O)CC2)C(=O)C1C(=O)c1ccccc1,-,NL4-3,EC50,MT-4,MTT,>25 µg/mL
Cc1ccc(S(=O)(=O)n2c(=O)[nH]c3ccc(Cl)cc32)cc1C,-,IIIB,EC50,MT-4,-,0.006 µM
O=C(CSc1snnc1-c1ccccc1)Nc1ccccc1F,-,IIIB,EC50,MT-4,MTT,>361.8 µM
COC[C@@H](c1ccc(C(F)(F)F)cc1)N1CCN(C2(C)CCN(C(=O)c3c(C)ncnc3C)CC2)C[C@@H]1C,M518V F519L V535M,S,EC50,TZM-bl,-,0.0042 µM
CC(C)C1=C2[C@H]3CC[C@@H]4[C@@]5(C)CC[C@H](OC(=O)[C@H]6C[C@@H](C(=O)O)C6(C)C)C(C)(C)[C@@H]5CC[C@@]4(C)[C@]3(C)CC[C@@]2([C@@H](O)CNCC(CN)NC(=O)c2ccc(Cl)cc2)CC1=O,-,92HT599,EC50,MT-2,p24 / ELISA,<1 µM
Clc1ncnc2ncn([C@@H]3C=CC4(CC3)O[C@H](c3ccccc3)[C@@H](c3ccccc3)O4)c12,-,NL4-3,EC50,MT-4,MTT,>2.4 µg/mL
CC(C)C1=C2[C@H]3CC[C@@H]4[C@@]5(C)CC[C@H](OC(=O)[C@H]6C[C@@H](C(=O)O)C6(C)C)C(C)(C)[C@@H]5CC[C@@]4(C)[C@]3(C)CC[C@@]2([C@@H](O)CNCC2CCCC2)CC1=O,-,92HT599,EC50,MT-2,p24 / ELISA,<1 µM
O=Cc1ccc2n1[C@@H](Cc1ccccc1)C(=O)Nc1ccccc1-2,-,IIIB,EC90,MT-2,cytopathic effect / XTT,>2.5 µg/mL
C[C@H]1O[C@@H](CO)O[C@H]1n1cnc2c(=O)[nH]c(N)nc21,-,-,EC95,MT-4,p24,>10 µM
C=C(C)COCn1c(Cc2ccccc2)c(CO)c(=O)[nH]c1=O,-,-,EC50,MT-4,MTT,>20 µM
Oc1cc(O)c2c(c1)O[C@H](c1ccc(O)c(O)c1)[C@H](O)[C@H]2c1c(O)cc(O)c2c1O[C@H](c1ccc(O)c(O)c1)[C@H](O)[C@H]2c1c(O)cc(O)c2c1O[C@H](c1ccc(O)c(O)c1)[C@H](O)C2,-,IIIB,EC50,H9,p24,25 µM
Cc1cn([C@H]2C=C[C@@H](CP(=O)(O)O)O2)c(=O)[nH]c1=O,-,IIIB,EC50,MT-4,cytopathic effect,>128 µg/mL
CC(C)(C)OC(=O)N[C@H](Cc1ccc(O)cc1)/C(O)=C(\C#N)c1c(F)c(F)c(F)c(F)c1F,-,IIIB,EC50,MT-4,RT activity,43 µM
O=C1Cn2cccc2-c2ccccc2N1,-,IIIB,EC90,MT-2,cytopathic effect / XTT,>50 µg/mL
CC(C)C1=C2[C@H]3CC[C@@H]4[C@@]5(C)CC[C@H](OC(=O)[C@H]6C[C@@H](C(=O)O)C6(C)C)C(C)(C)[C@@H]5CC[C@@]4(C)[C@]3(C)CC[C@@]2([C@@H](O)CNCc2ccc(Cl)cc2OC2CCOC2)CC1=O,-,92HT599,EC50,MT-2,p24 / ELISA,<1 µM
O=C(O)C[C@H]1C(=O)Nc2ccccc2-c2cccn21,-,IIIB,EC90,MT-2,cytopathic effect / XTT,>50 µg/mL
Fc1cccc(F)c1C1SCc2nc3cc4ccccc4cc3n21,-,RF,EC50,CEM + CEM-SS,-,>0.63 µM
O=C1C=C[C@H](n2ccc(=O)n(C(=O)c3ccccc3)c2=O)CC1,-,NL4-3,EC50,MT-4,MTT,>10.1 µg/mL
c1ccc(CNCc2ccc(CN3CCCNCCNCCCNCC3)cc2)nc1,-,IIIB,EC50,-,-,0.001–0.01 µg/mL

Repeating the final 3 entries:

Fc1cccc(F)c1C1SCc2nc3cc4ccccc4cc3n21 ; strain: RF ; read-out: EC50 ; cell line: CEM + CEM-SS ; value: >0.63 µM
O=C1C=C[C@H](n2ccc(=O)n(C(=O)c3ccccc3)c2=O)CC1 ; strain: NL4-3 ; read-out: EC50 ; cell line: MT-4 ; read by: MTT ; value: >10.1 µg/mL
c1ccc(CNCc2ccc(CN3CCCNCCNCCCNCC3)cc2)nc1 ; strain: IIIB ; read-out: EC50 ; value: 0.001–0.01 µg/mL

Neighbouring rows are from separate reports. An empty or dashed field is not shown. a–b is a range or a potency band.